# Measurements from paper PMC7556816, “Structural and mechanistic analysis of ATPase inhibitors targeting mycobacterial DNA gyrase” (Journal of Antimicrobial Chemotherapy, 2020).
# Test system: M. smegmatis 4x03863 Mutant 2 (GyrB Gly83Ser)
structure (smiles),measurement,value
"CO[C@@H]1[C@@H](OC(N)=O)[C@@H](O)[C@H](Oc2ccc3c(O)c(NC(=O)c4ccc(O)c(CC=C(C)C)c4)c(=O)oc3c2C)OC1(C)C [novobiocin, reference compound]",increase in resistance of mutant strain,32 fold
